Compound potency records, mixed from different reports. Data source: NIAID ChemDB in PubChem.

Shared fields: whole-cell or culture tests; species: Candida albicans

Lines come from different laboratories, so protocols vary. A number after MIC or MFC names an inhibition level or a share of isolates. An empty or dashed field is not shown.

compound	measure	read by	strain or isolate	result
Cc1c(S(=O)(=O)c2ccccc2)[n+](=O)c2cc(Cl)ccc2n1[O-]	MIC	-	Clinical isolate 7	31.25 µg/mL
Clc1ccccc1COc1ccc(C(c2ccc3ccccc3c2)n2ccnc2)cc1.O=[N+]([O-])O	Mean MIC	-	17 strains	≥256 µg/mL
Cc1c(Sc2ccccc2)[n+](=O)c2cc(C(F)(F)F)ccc2n1[O-]	MIC	-	Clinical isolate 21	7.8 µg/mL
Clc1ccc(COc2ccc(C(c3ccc4ccccc4c3)n3ccnc3)cc2)c(Cl)c1	Mean MIC	-	16 strains	≥256 µg/mL
CCCCCCCCOc1ccc(N2CCN(c3ccc(C(=O)N[C@H]4CCCNC(=O)C5C[C@H](N)CN5C(=O)C(C(C)O)NC(=O)C(Cc5ccc(C)cc5)NC(=O)C5CCCN5C(=O)C(C(C)O)NC4=O)cc3)CC2)cc1	MIC	-	ATCC 62376	3.12 µg/mL
Cc1c(O)cccc1C(=O)N[C@@H](CSc1ccccc1)[C@H](O)CN1C[C@H]2CCCC[C@H]2C[C@H]1C(=O)NC(C)(C)C	MIC	-	I51	64 µg/mL
CCOc1cc2c(cc1F)n([O-])c(C)c(Cl)[n+]2=O	MIC	-	Clinical isolate 10	15.6 µg/mL
CCCCCOc1ccc(-c2ccc(-c3ccc(C(=O)N[C@H]4CCCNC(=O)[C@@H]5C[C@H](N)CN5C(=O)[C@H](CO)NC(=O)C(CCc5ccc(O)cc5)NC(=O)[C@@H]5C[C@@H](O)CN5C(=O)[C@H]([C@@H](C)O)NC4=O)cc3)cc2)cc1	MIC	-	ATCC 10231	0.1 µg/mL
Clc1cccc(Cl)c1COc1ccc(C(c2ccc(-c3ccccc3)cc2)n2ccnc2)cc1.O=[N+]([O-])O	MIC90	-	16 strains	≥256 µg/mL
C=CCc1ccc(O)c(OC)c1	MIC90	turbidity	3054	500 µg/mL
C[C@H]1[C@H](O)[C@@H](C)/C=C/C=C/C=C/C=C/C=C/C=C/C=C/[C@H](O[C@@H]2O[C@H](C)[C@@H](O)[C@H](N)[C@@H]2O)C[C@@H]2O[C@](O)(C[C@@H](O)C[C@@H](O)CC[C@H](O)[C@@H](O)C[C@@H](O)CC(=O)O[C@H]1C)C[C@H](O)[C@H]2C(=O)O	MIC90	-	Fluconazole-resistant 4 isolates pooled	0.5 µg/mL
CCCCCCCCOc1ccc(N2CCN(c3ccc(C(=O)N[C@H]4CCCNC(=O)C5C[C@H](N)CN5C(=O)C(C(C)O)NC(=O)[C@@H](OCc5ccccc5)NC(=O)C5C[C@@H](O)CN5C(=O)C(C(C)O)NC4=O)cc3)CC2)cc1	MIC	-	ATCC CCH442	>100 µg/mL
Clc1ccccc1COc1ccc(C(c2cccc3ccccc23)n2ccnc2)cc1.O=[N+]([O-])O	Mean MIC	-	16 strains	≥256 µg/mL
CC(O)C1NC(=O)C(CCc2ccc(O)cc2)NC(=O)C2C[C@@H](O)CN2C(=O)C(C(C)O)NC(=O)[C@@H](NC(=O)c2ccccc2)CCCNC(=O)C2C[C@H](N)CN2C1=O	MIC	-	ATCC CCH442	>100 µg/mL
Clc1ccccc1COc1ccc(C(c2nccc3ccccc23)n2ccnc2)cc1.O=[N+]([O-])O	Mean MIC	-	17 strains	≥256 µg/mL
COc1cc(O)c2c(c1)C(=O)c1c(cc3c(c1O)-c1c(cc(C)c(C(=O)NC(CO)C(=O)O)c1O)[C@H](OC1OC(C)C(O)C(OC4OCC(O)C(O)C4O)C1O)C3O)C2=O	MIC90	-	34 isolates	8 µg/mL
N=C(N)c1ccc2nc(-c3ccc(-c4nc5ccc(C(=N)N)cc5[nH]4)[nH]3)[nH]c2c1	MFC	-	Isolate CA1247	0.78 µg/mL
CCCCCCCCOc1ccc(N2CCN(c3ccc(C(=O)N[C@H]4CCCNC(=O)C5C[C@H](N)CN5C(=O)C(C(C)O)NC(=O)C(Cc5ccc(C=O)cc5)NC(=O)C5CCCN5C(=O)C(C(C)O)NC4=O)cc3)CC2)cc1	MIC	-	ATCC CCH442	25 µg/mL

A second listing of 2 rows from above:

Clc1cccc(Cl)c1COc1ccc(C(c2ccc(-c3ccccc3)cc2)n2ccnc2)cc1.O=[N+]([O-])O ; measure: MIC90 ; strain or isolate: 16 strains ; result: ≥256 µg/mL
CCCCCCCCOc1ccc(N2CCN(c3ccc(C(=O)N[C@H]4CCCNC(=O)C5C[C@H](N)CN5C(=O)C(C(C)O)NC(=O)C(Cc5ccc(C=O)cc5)NC(=O)C5CCCN5C(=O)C(C(C)O)NC4=O)cc3)CC2)cc1 ; measure: MIC ; strain or isolate: ATCC CCH442 ; result: 25 µg/mL